A mixed list of measured activities; the numbers were collected in NIAID ChemDB.

Common to all: whole-cell or culture tests; organism: Mycobacterium avium complex

MIC50, MIC90 and the like: level of inhibition, or share of isolates inhibited. ECn is the concentration giving n% inhibition of infection, replication or growth. Blank or dashed fields: not listed here. Rows are shuffled and stem from different studies.

compound,strain,method,measure,result
CC[C@H]1OC(=O)[C@H](C)[C@@H](O[C@H]2C[C@@](C)(OC)[C@@H](O)[C@H](C)O2)[C@H](C)[C@@H](O[C@@H]2O[C@H](C)C[C@H](N(C)C)[C@H]2O)[C@](C)(OC)C[C@@H](C)C(=O)[C@H](C)[C@@H](O)[C@]1(C)O,22 strains,-,MIC50,≤0.25 µg/mL
CC[C@@H](CO)NCCN[C@@H](CC)CO,W6506,-,MIC,8 µg/mL
CN[C@@H]1[C@@H](O)[C@@H](O[C@@H]2[C@@H](O)[C@H](O[C@H]3O[C@H](CN)CC[C@H]3N)[C@@H](N)C[C@H]2N)OC[C@]1(C)O,20 strains,agar,EC50,<4 µg/mL
NC1CCN(c2c(F)cc3c(=O)c(C(=O)O)c4n(c3c2F)CCS4)C1,14 strains,-,MIC50,≥32 µg/mL
CC1CN(c2cc3c(cc2F)c(=O)c(C(=O)O)cn3-c2ccc(F)cc2F)CCN1,3218,-,MIC,4 µg/mL
CO[C@H]1/C=C/O[C@@]2(C)Oc3c(C)c(O)c4c(=O)c(c5oc6cc(N7CCN(CC(C)C)CC7)cc(=O)c6nc5c4c3=C2O)NC(=O)/C(C)=C\C=C\[C@H](C)[C@H](O)[C@@H](C)[C@@H](O)[C@@H](C)[C@H](OC(C)=O)[C@@H]1C,N-444,-,MIC,0.06 µg/mL
CO[C@H]1/C=C/O[C@@]2(C)Oc3c(C)c(O)c4c(O)c(c(/C=N/N5CCN(C)CC5)c(O)c4c3C2=O)NC(=O)/C(C)=C\C=C\[C@H](C)[C@H](O)[C@@H](C)[C@@H](O)[C@@H](C)[C@H](OC(C)=O)[C@@H]1C,3214,-,MIC,1 µg/mL
O=C(O)c1cn(C2CC2)c2c(F)c(N3CCC(n4ccnc4)C3)c(F)cc2c1=O,-,-,MIC90,16 µg/mL
CCC1CN(c2cc3c(cc2F)c(=O)c(C(=O)O)cn3CC)CCN1,14 strains,-,MIC50,≥32 µg/mL
CO[C@H]1/C=C/O[C@@]2(C)Oc3c(C)c(O)c4c(O)c(c5c(c4c3C2=O)NC2(CCN(CC(C)C)CC2)N=5)=NC(=O)/C(C)=C\C=C\[C@H](C)[C@H](O)[C@@H](C)[C@@H](O)[C@@H](C)[C@H](OC(C)=O)[C@@H]1C,230 isolates,-,MIC90,0.4 µg/mL
O=C(O)c1cn(C2CC2)c2c(F)c(N3CCC(N4CCCC4)C3)c(F)cc2c1=O,-,-,MIC90,4 µg/mL
NCC[C@H](O)C(=O)N[C@@H]1C[C@H](N)[C@@H](O[C@H]2O[C@H](CN)[C@@H](O)[C@H](O)[C@H]2O)[C@H](O)[C@H]1O[C@H]1O[C@H](CO)[C@@H](O)[C@H](N)[C@H]1O,549/HIV+,-,MIC,2.5 µg/mL
CC(C)N1CCN(c2cc3c(cc2F)c(=O)c(C(=O)O)cn3C(C)(C)C)CC1,14 strains,-,MIC50,2 µg/mL
CO[C@H]1/C=C/O[C@@]2(C)Oc3c(C)c(O)c4c(O)c(c(/C=N/N5CCN(C6CCCC6)CC5)c(O)c4c3C2=O)NC(=O)/C(C)=C\C=C\[C@H](C)[C@H](O)[C@@H](C)[C@@H](O)[C@@H](C)[C@H](OC(C)=O)[C@@H]1C,101,-,MIC,4 µg/mL
COc1c(N2CCNC(C)C2)c(F)cc2c(=O)c(C(=O)O)cn(C3CC3)c12,N-966,-,MIC,8 µg/mL
CN1CCN(c2cc3c(cc2F)c(=O)c(C(=O)O)cn3-c2ccc(F)cc2)CC1,3216,-,MIC,32 µg/mL
CN[C@@H]1[C@H](O[C@H]2[C@H](O[C@H]3[C@H](O)[C@@H](O)[C@H](N=C(N)N)[C@@H](O)[C@@H]3N=C(N)N)O[C@@H](C)[C@]2(O)C=O)O[C@@H](CO)[C@H](O)[C@H]1O,Isolate C-48,-,MIC,400 µg/mL
CC1CCN(c2c(F)cc3c(=O)c(C(=O)O)cn(C4CC4)c3c2F)C1,-,-,MIC50,2 µg/mL
Clc1ccccc1C(c1ccccc1)(c1ccccc1)n1ccnc1,101,-,MIC,0.03 µg/mL
O=C(O)c1cn(C2CC2)c2c(F)c(N3CC4CCCC(C3)N4)c(F)cc2c1=O,-,-,MIC90,8 µg/mL
CCCCN1CCN(c2cc3c(cc2F)c(=O)c(C(=O)O)cn3C2CC2)CC1,14 strains,-,MIC90,8 µg/mL
NCC1CCN(c2c(F)cc3c(=O)c(C(=O)O)cn(C4CC4)c3c2F)C1,-,-,MIC50,2 µg/mL
NCC[C@H](O)C(=O)N[C@@H]1C[C@H](N)[C@@H](O[C@H]2O[C@H](CN)[C@@H](O)[C@H](O)[C@H]2O)[C@H](O)[C@H]1O[C@H]1O[C@H](CO)[C@@H](O)[C@H](N)[C@H]1O,101,-,MIC,16 µg/mL
CC[C@@H](CO)NCCN[C@@H](CC)CO,242-5,-,MIC,1.9 µg/mL
O=C(O)c1cn(C2CC2)c2nc(N3CCN4CC3C4)c(F)cc2c1=O,-,-,MIC50,8 µg/mL
CCn1cc(C(=O)O)c(=O)c2cc(F)c(N3CCNCC3)cc21,22 strains,-,MIC50,4 µg/mL
CC1CN(c2cc3c(c(CO)c2F)c(=O)c(C(=O)O)cn3C2CC2)CCN1,-,-,MIC90,32 µg/mL
CO[C@H]1/C=C/O[C@@]2(C)Oc3c(C)c(O)c4c(O)c(c(/C=N/N5CCN(C)CC5)c(O)c4c3C2=O)NC(=O)/C(C)=C\C=C\[C@H](C)[C@H](O)[C@@H](C)[C@@H](O)[C@@H](C)[C@H](OC(C)=O)[C@@H]1C,MO-1,-,MIC,16 µg/mL
CC1CN(c2cc3c(cc2F)c(=O)c(C(=O)O)cn3-c2ccc(F)cc2F)CC(C)N1,14 strains,-,MIC50,2 µg/mL
CC[C@H]1OC(=O)[C@H](C)[C@@H](O[C@H]2C[C@@](C)(OC)[C@@H](O)[C@H](C)O2)[C@H](C)[C@@H](O[C@@H]2O[C@H](C)C[C@H](N(C)C)[C@H]2O)[C@](C)(OC)C[C@@H](C)C(=O)[C@H](C)[C@@H](O)[C@]1(C)O,N-966,-,MIC,16 µg/mL
CC(C)N=c1cc2n(-c3ccc(Cl)cc3)c3ccccc3nc-2cc1Nc1ccc(Cl)cc1,CH-2/HIV+,-,MIC,0.5 µg/mL
CC1CN(c2cc3c(cc2F)c(=O)c(C(=O)O)cn3C(C)C)CC(C)N1,14 strains,-,MIC50,16 µg/mL
Nc1ccc(C(=O)O)c(O)c1,155 strains,agar,EC50,>2 µg/mL
CCN1CCN(c2nc3c(cc2F)c(=O)c(C(=O)O)cn3C(C)(C)C)CC1,14 strains,-,MIC50,1 µg/mL
CC[C@H]1OC(=O)[C@H](C)[C@@H](O[C@H]2C[C@@](C)(OC)[C@@H](O)[C@H](C)O2)[C@H](C)[C@@H](O[C@@H]2O[C@H](C)C[C@H](N(C)C)[C@H]2O)[C@](C)(O)C[C@@H](C)CN(C)[C@H](C)[C@@H](O)[C@]1(C)O,28 strains,-,MIC50,32 µg/mL
CC[C@@H](CO)NCCN[C@@H](CC)CO,N-444,-,MIC,16 µg/mL